Reference: PubChem BioAssay AID588497 (NMMLSC, 2011)
This is a selection; strong and weak results do not stand in their true shares. Results filed as inconclusive are left out. Some structures show a salt or complex split into parts, the way the source records it. Calls of active or inactive are those of the source. Cut-off read from the data, not from the text of the source: active = inhibition above about 35% (passing the limit was not always enough); inconclusive = no clear call, values can overlap the other calls.

These molecules were tested on Botulinum neurotoxin type F light chain protease (Clostridium botulinum) (assay: BoNT/F light chain protease inhibitors, primary screen, biochemical, flow cytometry, MLPCN library (AID 588497; note: plate controls were buffer without enzyme for full effect and enzyme alone for no effect)). Conditions: Multiplex microsphere protease cleavage assay, at 10 µM, active compounds read high.

Structure (SMILES)	inhibition
Cc1ccccc1NP(C)(=O)Nc1ccccc1C	inactive: -7%
O=[N+]([O-])c1cc([N+](=O)[O-])c(C(F)(F)F)c([N+](=O)[O-])c1O	inactive: 5.9%
CP(=O)(Nc1ccc2c(c1)OCCO2)Oc1ccccc1 (stereo not drawn)	inactive: -3%
CCOP(C)(=S)SCC(=O)NC(C)(CC)C(=O)O (stereo not drawn)	inactive: -10.5%
CP(=O)(Nc1ccc(SC(F)(F)F)cc1)Oc1ccc(F)cc1 (stereo not drawn)	inactive: 4.3%
Cc1c(C(c2ccc3c(c2)OCO3)c2c(C)n(C)n(-c3ccccc3)c2=O)c(=O)n(-c2ccccc2)n1C.O=[N+]([O-])c1cc([N+](=O)[O-])c(O)c([N+](=O)[O-])c1	inactive: -1.5%
O=[N+]([O-])c1ccc(OP2(=O)COCCO2)cc1 (stereo not drawn)	inactive: -32.1%
Cc1cc(-c2cccc3ccccc23)c(C)cn1.O=[N+]([O-])c1cc([N+](=O)[O-])c(O)c([N+](=O)[O-])c1	inactive: 0.7%
O=[N+]([O-])c1cc([N+](=O)[O-])c(NCC2CCS(=O)(=O)C2)c([N+](=O)[O-])c1 (stereo not drawn)	inactive: 25.2%
CN(C)CCOC(=O)C(O)(c1ccccc1)C1CCCCC1 (stereo not drawn)	inactive: -6.3%
COc1ccc(NP(C)(=O)Oc2ccccc2OC)cc1 (stereo not drawn)	inactive: -2.4%
COc1ccc(OP(C)(=O)Nc2cccc(Br)c2)cc1 (stereo not drawn)	inactive: -3.5%
CP(=O)(Nc1ccccc1)Oc1ccc(F)cc1 (stereo not drawn)	inactive: -23%
Cc1c([N+](=O)[O-])cc([N+](=O)[O-])c(Br)c1[N+](=O)[O-]	inactive: 0%
CCN(CC)CCCOC(=O)C(O)(c1ccccc1)C1CCCCC1 (stereo not drawn)	inactive: -3.4%
CCOC(=O)c1ccc(NP(C)(=O)Oc2ccc(F)cc2)cc1 (stereo not drawn)	inactive: 3%
COc1ccc(OP(C)(=O)Nc2ccc(SC(F)(F)F)cc2)cc1 (stereo not drawn)	inactive: -6.2%
CCN(CC)CCCNc1ccccc1[N+](=O)[O-].O=[N+]([O-])c1cc([N+](=O)[O-])c(O)c([N+](=O)[O-])c1	inactive: 1.2%
COc1ccc2c(c1O)-c1c(O)c(OC)cc3c1[C@H](C2)[N+](C)(C)CC3.O=[N+]([O-])c1cc([N+](=O)[O-])c([O-])c([N+](=O)[O-])c1[O-]	inactive: -11.5%
O=C(OC1CN2CCC1CC2)c1ccc([N+](=O)[O-])cc1 (stereo not drawn)	inactive: -0.3%
O=C(OCCN1CCN(CCOCc2ccccc2)CC1)C(O)(c1ccccc1)c1ccccc1	inactive: -4.4%
CP(=O)(Nc1ccccc1F)Oc1ccccc1 (stereo not drawn)	inactive: -0.1%
CC(C)c1ccc(OP(C)(=O)Nc2ccc(SC(F)(F)F)cc2)cc1 (stereo not drawn)	inactive: -2.1%
